The nature of the data set: Intrinsic fluorescence of quencher dyes compared with NIR Reporter Dye A. Type of data set: physicochemical. As to conditions: acidic (pH 4.6) vs basic (pH 7.5) 50 mM TRIS-HCl buffer with 10% DMSO.
`CC1(C)C(/C=C/C2=C(Cl)C(=C/C=C3/N(CCCCCCC(=O)O)c4ccc5cc(S(=O)(=O)[O-])ccc5c4C3(C)C)/CCC2)=[N+](CCCS(=O)(=O)[O-])c2ccc(N(CCCS(=O)(=O)O)CCCS(=O)(=O)O)cc21.[Na+]` [Compound 5]: the “pH dependence of intrinsic fluorescence” value is “slight increase”. Next, `CC1(C)C(/C=C/C2=C(Cl)C(=C/C=C3/N(CCCCCC(=O)[O-])c4ccc5ccccc5c4C3(C)C)/CCC2)=[N+](CCCS(=O)(=O)[O-])c2ccc(N(CCCS(=O)(=O)O)CCCS(=O)(=O)O)cc21.[Na+]` [Compound 9]: “slight increase”; `CC1(C)C(/C=C/C2=C(Cl)C(=C/C=C3/N(CCCCCC(=O)[O-])c4ccc5c(S(=O)(=O)[O-])cc(S(=O)(=O)[O-])cc5c4C3(C)C)/CCC2)=[N+](CCCS(=O)(=O)[O-])c2ccc(N(CCCS(=O)(=O)O)CCCS(=O)(=O)O)cc21.[Na+].[Na+].[Na+]` [Compound 12]: “slight increase”. As to `CN(C)c1ccc2c3c(cccc13)C(/C=C/C=C/C=C1/N(CCCCCC(=O)[O-])c3ccc4c(S(=O)(=O)[O-])cc(S(=O)(=O)[O-])cc4c3C1(C)C)=[N+]2C.[Na+].[Na+]` [Compound 19A], the “pH dependence of intrinsic fluorescence” value is recorded as “do not have pH dependent intrinsic fluorescence”.

These data come from patent US8227621B2, “Cyanine dyes and methods of use” (priority 2005, dated 2012).
